Here are results for 13 compounds from publication PMC9506549, “µ-Conotoxins Targeting the Human Voltage-Gated Sodium Channel Subtype NaV1.7” (2022).

The chains behind the UniProt entries cited, without tags or fusion partners. Residues count along the entry.
UniProt Q99250, whole entry: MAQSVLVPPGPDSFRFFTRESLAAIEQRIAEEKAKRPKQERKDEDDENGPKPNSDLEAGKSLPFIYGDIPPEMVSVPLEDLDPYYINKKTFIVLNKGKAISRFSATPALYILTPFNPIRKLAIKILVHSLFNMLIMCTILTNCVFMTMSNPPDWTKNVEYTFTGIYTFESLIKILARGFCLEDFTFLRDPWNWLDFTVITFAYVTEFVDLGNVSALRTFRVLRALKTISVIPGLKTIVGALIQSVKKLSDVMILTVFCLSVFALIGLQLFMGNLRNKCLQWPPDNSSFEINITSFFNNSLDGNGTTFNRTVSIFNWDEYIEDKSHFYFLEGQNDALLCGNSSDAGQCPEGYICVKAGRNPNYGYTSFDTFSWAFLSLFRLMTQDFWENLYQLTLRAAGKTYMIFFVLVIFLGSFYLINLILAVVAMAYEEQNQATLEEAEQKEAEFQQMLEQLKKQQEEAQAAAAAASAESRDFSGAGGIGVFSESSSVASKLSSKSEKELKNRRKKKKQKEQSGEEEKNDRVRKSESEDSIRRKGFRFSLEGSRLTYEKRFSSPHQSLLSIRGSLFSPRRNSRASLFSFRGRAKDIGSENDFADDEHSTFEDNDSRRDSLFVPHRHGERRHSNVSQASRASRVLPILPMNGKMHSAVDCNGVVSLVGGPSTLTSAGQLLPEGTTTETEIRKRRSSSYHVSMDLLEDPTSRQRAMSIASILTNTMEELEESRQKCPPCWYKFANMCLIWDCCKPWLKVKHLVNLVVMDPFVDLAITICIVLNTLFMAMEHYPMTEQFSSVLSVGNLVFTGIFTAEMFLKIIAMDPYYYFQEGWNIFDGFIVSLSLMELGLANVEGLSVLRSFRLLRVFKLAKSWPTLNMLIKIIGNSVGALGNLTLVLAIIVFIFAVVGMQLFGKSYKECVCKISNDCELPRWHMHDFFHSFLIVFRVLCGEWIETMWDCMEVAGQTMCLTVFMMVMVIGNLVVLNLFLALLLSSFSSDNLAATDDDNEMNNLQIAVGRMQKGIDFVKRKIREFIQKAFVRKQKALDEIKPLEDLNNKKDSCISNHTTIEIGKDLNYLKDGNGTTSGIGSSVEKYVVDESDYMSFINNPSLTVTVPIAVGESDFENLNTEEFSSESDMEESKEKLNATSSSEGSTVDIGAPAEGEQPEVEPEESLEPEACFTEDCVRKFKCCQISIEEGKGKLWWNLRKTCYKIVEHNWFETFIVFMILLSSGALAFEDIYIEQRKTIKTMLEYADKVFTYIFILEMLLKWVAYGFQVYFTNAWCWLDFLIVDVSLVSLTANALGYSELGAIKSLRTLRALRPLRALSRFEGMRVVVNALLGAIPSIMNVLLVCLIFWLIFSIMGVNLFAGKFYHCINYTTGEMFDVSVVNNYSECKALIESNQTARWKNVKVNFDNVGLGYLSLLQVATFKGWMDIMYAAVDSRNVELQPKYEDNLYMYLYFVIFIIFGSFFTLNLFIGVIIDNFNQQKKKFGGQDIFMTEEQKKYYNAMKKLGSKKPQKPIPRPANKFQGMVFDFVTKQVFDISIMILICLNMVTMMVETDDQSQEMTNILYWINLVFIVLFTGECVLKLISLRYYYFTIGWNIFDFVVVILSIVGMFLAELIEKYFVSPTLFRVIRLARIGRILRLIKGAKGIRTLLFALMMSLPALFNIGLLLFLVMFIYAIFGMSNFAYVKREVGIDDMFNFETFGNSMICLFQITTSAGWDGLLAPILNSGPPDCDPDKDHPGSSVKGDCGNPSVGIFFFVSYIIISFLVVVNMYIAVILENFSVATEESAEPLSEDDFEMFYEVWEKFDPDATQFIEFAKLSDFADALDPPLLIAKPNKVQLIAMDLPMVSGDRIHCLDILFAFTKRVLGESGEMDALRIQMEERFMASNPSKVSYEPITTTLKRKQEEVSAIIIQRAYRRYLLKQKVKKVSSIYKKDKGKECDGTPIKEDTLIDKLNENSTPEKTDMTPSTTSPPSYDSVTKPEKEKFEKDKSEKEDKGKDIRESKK
UniProt P35499, whole entry: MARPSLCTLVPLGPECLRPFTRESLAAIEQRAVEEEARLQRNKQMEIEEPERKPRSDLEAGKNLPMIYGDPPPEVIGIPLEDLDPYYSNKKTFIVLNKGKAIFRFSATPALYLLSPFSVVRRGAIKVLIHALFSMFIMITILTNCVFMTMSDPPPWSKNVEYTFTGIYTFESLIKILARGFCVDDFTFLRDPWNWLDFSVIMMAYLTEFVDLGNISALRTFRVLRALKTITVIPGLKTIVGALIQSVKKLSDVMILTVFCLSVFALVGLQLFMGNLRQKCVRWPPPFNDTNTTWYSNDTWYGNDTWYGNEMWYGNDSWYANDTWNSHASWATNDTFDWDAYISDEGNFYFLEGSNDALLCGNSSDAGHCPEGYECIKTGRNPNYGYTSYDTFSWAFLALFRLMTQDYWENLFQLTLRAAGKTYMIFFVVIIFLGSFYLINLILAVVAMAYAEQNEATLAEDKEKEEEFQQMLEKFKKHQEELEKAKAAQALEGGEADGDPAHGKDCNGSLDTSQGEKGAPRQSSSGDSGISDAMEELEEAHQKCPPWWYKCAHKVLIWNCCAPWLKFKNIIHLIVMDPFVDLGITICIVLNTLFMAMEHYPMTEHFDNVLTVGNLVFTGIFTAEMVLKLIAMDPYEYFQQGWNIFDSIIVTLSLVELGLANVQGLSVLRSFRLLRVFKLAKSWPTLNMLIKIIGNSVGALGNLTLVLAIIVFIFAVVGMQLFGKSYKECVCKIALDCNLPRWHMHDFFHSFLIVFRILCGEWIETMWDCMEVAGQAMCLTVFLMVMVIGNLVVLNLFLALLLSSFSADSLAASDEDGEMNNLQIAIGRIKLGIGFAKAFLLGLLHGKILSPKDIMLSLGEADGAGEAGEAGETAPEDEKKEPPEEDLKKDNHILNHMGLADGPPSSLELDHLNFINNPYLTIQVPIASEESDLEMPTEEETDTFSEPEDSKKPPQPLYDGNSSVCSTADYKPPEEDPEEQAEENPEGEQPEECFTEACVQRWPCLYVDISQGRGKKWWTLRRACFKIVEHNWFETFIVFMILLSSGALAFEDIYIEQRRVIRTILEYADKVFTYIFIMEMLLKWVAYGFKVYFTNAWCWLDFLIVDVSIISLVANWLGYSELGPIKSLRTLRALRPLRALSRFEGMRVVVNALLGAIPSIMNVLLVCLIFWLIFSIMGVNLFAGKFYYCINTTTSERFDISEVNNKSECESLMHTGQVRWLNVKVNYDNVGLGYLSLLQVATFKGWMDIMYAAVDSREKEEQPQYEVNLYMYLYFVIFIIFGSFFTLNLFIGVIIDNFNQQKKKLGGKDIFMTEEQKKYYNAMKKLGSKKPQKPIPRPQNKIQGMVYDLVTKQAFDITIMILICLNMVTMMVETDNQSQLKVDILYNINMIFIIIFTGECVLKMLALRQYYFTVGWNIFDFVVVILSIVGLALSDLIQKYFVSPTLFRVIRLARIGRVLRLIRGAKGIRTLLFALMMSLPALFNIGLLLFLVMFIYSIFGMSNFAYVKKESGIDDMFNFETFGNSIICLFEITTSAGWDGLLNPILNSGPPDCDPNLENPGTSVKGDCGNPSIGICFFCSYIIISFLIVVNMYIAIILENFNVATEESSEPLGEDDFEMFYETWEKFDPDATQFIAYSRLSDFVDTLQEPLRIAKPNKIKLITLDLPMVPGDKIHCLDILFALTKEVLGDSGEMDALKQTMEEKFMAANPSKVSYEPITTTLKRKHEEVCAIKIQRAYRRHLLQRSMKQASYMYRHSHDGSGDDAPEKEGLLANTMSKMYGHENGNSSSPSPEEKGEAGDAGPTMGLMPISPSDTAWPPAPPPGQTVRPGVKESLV
UniProt Q15858, whole entry: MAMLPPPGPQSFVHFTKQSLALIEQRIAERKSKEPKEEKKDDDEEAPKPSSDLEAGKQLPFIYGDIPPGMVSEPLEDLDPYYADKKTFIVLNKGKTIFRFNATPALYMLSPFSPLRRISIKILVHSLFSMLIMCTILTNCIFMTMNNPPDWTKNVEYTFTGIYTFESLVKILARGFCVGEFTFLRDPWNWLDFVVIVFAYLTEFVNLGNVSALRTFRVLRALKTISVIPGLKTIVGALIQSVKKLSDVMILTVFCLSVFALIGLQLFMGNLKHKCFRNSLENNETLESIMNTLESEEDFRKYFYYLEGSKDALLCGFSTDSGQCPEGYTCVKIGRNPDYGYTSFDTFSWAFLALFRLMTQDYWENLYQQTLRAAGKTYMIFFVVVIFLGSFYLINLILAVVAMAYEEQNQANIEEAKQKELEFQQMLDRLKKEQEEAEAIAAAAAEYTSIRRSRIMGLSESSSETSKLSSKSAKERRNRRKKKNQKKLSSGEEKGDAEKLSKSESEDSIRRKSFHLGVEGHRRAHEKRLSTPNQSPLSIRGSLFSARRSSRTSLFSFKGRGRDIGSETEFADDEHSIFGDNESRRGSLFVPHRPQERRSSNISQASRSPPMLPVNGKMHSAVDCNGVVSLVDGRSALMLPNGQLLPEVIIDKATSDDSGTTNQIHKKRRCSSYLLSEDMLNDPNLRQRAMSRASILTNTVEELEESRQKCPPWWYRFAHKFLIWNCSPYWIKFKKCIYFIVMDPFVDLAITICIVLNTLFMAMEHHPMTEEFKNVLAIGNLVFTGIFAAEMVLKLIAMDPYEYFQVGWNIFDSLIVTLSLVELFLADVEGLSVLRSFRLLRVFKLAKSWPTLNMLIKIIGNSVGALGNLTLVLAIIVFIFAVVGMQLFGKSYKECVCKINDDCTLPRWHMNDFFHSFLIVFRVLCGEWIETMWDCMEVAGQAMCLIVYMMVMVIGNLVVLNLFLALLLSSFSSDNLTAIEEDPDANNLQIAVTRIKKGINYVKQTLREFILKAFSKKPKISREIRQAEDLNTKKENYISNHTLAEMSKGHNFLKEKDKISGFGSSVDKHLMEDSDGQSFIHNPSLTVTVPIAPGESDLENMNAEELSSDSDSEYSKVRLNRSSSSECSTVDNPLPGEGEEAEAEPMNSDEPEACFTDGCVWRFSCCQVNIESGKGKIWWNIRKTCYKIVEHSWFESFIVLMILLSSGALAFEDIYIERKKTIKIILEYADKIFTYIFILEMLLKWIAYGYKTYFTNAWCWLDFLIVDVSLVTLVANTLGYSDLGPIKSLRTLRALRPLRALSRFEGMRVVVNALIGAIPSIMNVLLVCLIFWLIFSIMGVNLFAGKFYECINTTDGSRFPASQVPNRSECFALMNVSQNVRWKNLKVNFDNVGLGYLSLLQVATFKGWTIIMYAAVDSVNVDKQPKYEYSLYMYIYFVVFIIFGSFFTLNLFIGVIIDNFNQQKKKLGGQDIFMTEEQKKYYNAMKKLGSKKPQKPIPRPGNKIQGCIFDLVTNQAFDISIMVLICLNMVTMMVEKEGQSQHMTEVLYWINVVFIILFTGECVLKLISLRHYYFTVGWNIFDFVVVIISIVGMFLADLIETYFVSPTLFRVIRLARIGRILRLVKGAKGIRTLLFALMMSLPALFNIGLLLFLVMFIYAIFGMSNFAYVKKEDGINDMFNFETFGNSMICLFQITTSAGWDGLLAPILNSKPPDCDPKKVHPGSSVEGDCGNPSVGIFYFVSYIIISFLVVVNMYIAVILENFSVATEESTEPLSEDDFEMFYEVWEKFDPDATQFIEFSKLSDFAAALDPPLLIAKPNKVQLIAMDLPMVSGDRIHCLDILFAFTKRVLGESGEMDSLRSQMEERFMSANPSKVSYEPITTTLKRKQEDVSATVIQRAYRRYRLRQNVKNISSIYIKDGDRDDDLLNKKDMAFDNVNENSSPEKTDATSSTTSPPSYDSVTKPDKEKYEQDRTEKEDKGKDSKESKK
UniProt Q07699, 19-218 partner limits assumed: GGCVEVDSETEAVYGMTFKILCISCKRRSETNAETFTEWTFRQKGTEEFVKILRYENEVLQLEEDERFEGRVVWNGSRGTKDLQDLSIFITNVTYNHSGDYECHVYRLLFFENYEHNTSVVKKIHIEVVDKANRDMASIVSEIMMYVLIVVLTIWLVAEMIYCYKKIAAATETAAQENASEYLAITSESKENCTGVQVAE

One test has as its target hNaV1.2 (Homo sapiens, UniProt Q99250). As to the kind of experiment: Automated whole-cell patch-clamp electrophysiology, hNaV1.2/β1 in HEK293 cells. Conditions: read-out: IC50 NaV1.2; automated whole-cell patch-clamp (QPatch-16), HEK293 hNaV1.2/β1, 0.1% BSA, 5 min per concentration, 22 °C; mean ± SEM, n = 3–10 cells.
For a further test, the target named is hNaV1.3 (Homo sapiens, UniProt Q9NY46). As to the kind of experiment: Automated whole-cell patch-clamp electrophysiology, hNaV1.3/β1 in HEK293 cells. As to conditions: read-out: IC50 NaV1.3; automated whole-cell patch-clamp (QPatch-16), HEK293 hNaV1.3/β1, 0.1% BSA, 5 min per concentration, 22 °C; mean ± SEM, n = 3–10 cells. A general note: The patch-clamp technique gives a direct electrical read-out from membranes.

For the next test, the target named is hNaV1.4 (Homo sapiens, UniProt P35499). As to the kind of experiment: Automated whole-cell patch-clamp electrophysiology, hNaV1.4/β1 in HEK293 cells. Conditions: for IC50: 22 °C, mean ± SEM.
A further test addresses hNaV1.5 (Homo sapiens, UniProt Q14524). As to the kind of experiment: Automated whole-cell patch-clamp electrophysiology, hNaV1.5/β1 in HEK293 cells. As to conditions: up to 1 µM; HEK293 hNaV1.5/β1, Figure S6.
For the next test, the target named is hNaV1.7 (Homo sapiens, UniProt Q15858). As to the kind of experiment: Automated whole-cell patch-clamp electrophysiology, hNaV1.7/β1 in HEK293 cells.
Setting [1] is: read-out: IC50 hNav1.4, analogue series (Table 3), automated whole-cell patch-clamp, HEK293 hNaV1.4/β1, 5 min per concentration, n = 3–4 cells.
Where [2] appears, read: 1 µM, highest concentration tested.

Read-outs that look alike come from different tables or passages of the source.

For `N=C(N)NCCC[C@@H]1NC(=O)[C@H](CO)NC(=O)[C@H](Cc2c[nH]cn2)NC(=O)[C@H](CC(=O)O)NC(=O)[C@H](CCCNC(=N)N)NC(=O)[C@@H]2CSSC[C@@H]3NC(=O)[C@@H](N)CSSC[C@H](NC1=O)C(=O)N[C@H](C(N)=O)CSSC[C@H](NC(=O)[C@H](CC(N)=O)NC3=O)C(=O)N[C@@H](CO)C(=O)N[C@@H](CO)C(=O)N[C@@H](CCCCN)C(=O)N[C@@H](Cc1c[nH]c3ccccc13)C(=O)N2`, the IC50 was 186 nM at hNaV1.2; over 1000 nM on hNaV1.3; 67 nM on hNaV1.4 (read-out: IC50 NaV1.4, automated whole-cell patch-clamp (QPatch-16), HEK293 hNaV1.4/β1, 0.1% BSA, 5 min per concentration, n = 3–10 cells); 379 nM on hNaV1.7 (read-out: IC50 NaV1.7, automated whole-cell patch-clamp (QPatch-16), HEK293 hNaV1.7/β1, 0.1% BSA, 5 min per concentration, 22 °C, mean ± SEM, n = 3–10 cells). Also, at hNaV1.5, the “inhibition of TTX-r hNaV1.5” value was “minimal to no inhibition”.

Turning to `C[C@@H]1NC(=O)[C@H](C)NC(=O)[C@H](Cc2c[nH]cn2)NC(=O)[C@H](CC(=O)O)NC(=O)[C@H](CCCNC(=N)N)NC(=O)[C@@H]2CSSC[C@H](N)C(=O)N[C@H]3CSSC[C@H](NC1=O)C(=O)N[C@H](C(N)=O)CSSC[C@H](NC(=O)CNC(=O)CNC(=O)[C@H](CCCNC(=N)N)NC(=O)CNC(=O)[C@H](CC(N)=O)NC3=O)C(=O)N[C@@H](CO)C(=O)N[C@@H](CO)C(=O)N[C@@H](CCCNC(=N)N)C(=O)N[C@@H](Cc1c[nH]c3ccccc13)C(=O)N2`, the IC50 at hNaV1.4 (setting [1]) is 222 nM.

`C[C@@H]1NC(=O)[C@H](Cc2c[nH]cn2)NC(=O)[C@H](CC(=O)O)NC(=O)[C@H](Cc2c[nH]cn2)NC(=O)[C@@H]2CSSC[C@H](N)C(=O)N[C@H]3CSSC[C@H](NC(=O)[C@H](CCCNC(=N)N)NC1=O)C(=O)N[C@H](C(N)=O)CSSC[C@H](NC(=O)CNC(=O)CNC(=O)[C@H](CCCNC(=N)N)NC(=O)CNC(=O)[C@H](CC(N)=O)NC3=O)C(=O)N[C@@H](CO)C(=O)N[C@@H](CO)C(=O)N[C@@H](CCCNC(=N)N)C(=O)N[C@@H](Cc1c[nH]c3ccccc13)C(=O)N2`: the IC50 on hNaV1.4 (setting [1]) is 221 nM.

For the compound `C[C@@H]1NC(=O)[C@H](Cc2c[nH]cn2)NC(=O)[C@H](C)NC(=O)[C@H](CCCNC(=N)N)NC(=O)[C@@H]2CSSC[C@H](NC(=O)CNC(=O)[C@@H](N)CCCNC(=N)N)C(=O)N[C@H]3CSSC[C@H](NC(=O)[C@H](CCCNC(=N)N)NC1=O)C(=O)N[C@H](C(N)=O)CSSC[C@H](NC(=O)CNC(=O)CNC(=O)[C@H](CCCNC(=N)N)NC(=O)CNC(=O)[C@H](CC(N)=O)NC3=O)C(=O)N[C@@H](CO)C(=O)N[C@@H](CO)C(=O)N[C@@H](CCCNC(=N)N)C(=O)N[C@@H](Cc1c[nH]c3ccccc13)C(=O)N2`, the IC50 on hNaV1.4 (setting [1]) was determined as 14.6 nM.

As to `C[C@@H]1NC(=O)[C@H](Cc2c[nH]cn2)NC(=O)[C@H](CC(=O)O)NC(=O)[C@H](Cc2c[nH]cn2)NC(=O)[C@@H]2CSSC[C@H](NC(=O)CNC(=O)[C@@H](N)CCCNC(=N)N)C(=O)N[C@H]3CSSC[C@H](NC(=O)[C@H](CCCNC(=N)N)NC1=O)C(=O)N[C@H](C(N)=O)CSSC[C@H](NC(=O)CNC(=O)CNC(=O)[C@H](CCCNC(=N)N)NC(=O)CNC(=O)[C@H](CC(N)=O)NC3=O)C(=O)N[C@@H](CO)C(=O)N[C@@H](CO)C(=O)N[C@@H](CCCNC(=N)N)C(=O)N[C@@H](Cc1c[nH]c3ccccc13)C(=O)N2`, at hNaV1.4 (setting [1]), the IC50 turned out to be 80.3 nM.

For the compound `C[C@@H]1NC(=O)[C@H](C)NC(=O)[C@H](Cc2c[nH]cn2)NC(=O)[C@H](CC(=O)O)NC(=O)[C@H](Cc2c[nH]cn2)NC(=O)[C@@H]2CSSC[C@H](N)C(=O)N[C@H]3CSSC[C@H](NC1=O)C(=O)N[C@H](C(N)=O)CSSC[C@H](NC(=O)CNC(=O)CNC(=O)[C@H](CCCNC(=N)N)NC(=O)CNC(=O)[C@H](CC(N)=O)NC3=O)C(=O)N[C@@H](CO)C(=O)N[C@@H](CO)C(=O)N[C@@H](CCCNC(=N)N)C(=O)N[C@@H](Cc1c[nH]c3ccccc13)C(=O)N2`, at hNaV1.4 (setting [2]), the “activity at hNaV1.4 at 1 µM” value was “not active”. Also, the IC50 at hNaV1.4 (setting [1]) was over 1000 nM. For the same compound, the “inhibition at hNaV1.7 at 1 µM” value at hNaV1.7 (setting [2]) is reported as ~ 50%.

Turning to `C[C@@H]1NC(=O)[C@H](Cc2c[nH]cn2)NC(=O)[C@H](CC(=O)O)NC(=O)[C@H](C)NC(=O)[C@@H]2CSSC[C@H](NC(=O)CNC(=O)[C@@H](N)CCCNC(=N)N)C(=O)N[C@H]3CSSC[C@H](NC(=O)[C@H](CCCNC(=N)N)NC1=O)C(=O)N[C@H](C(N)=O)CSSC[C@H](NC(=O)CNC(=O)CNC(=O)[C@H](CCCNC(=N)N)NC(=O)CNC(=O)[C@H](CC(N)=O)NC3=O)C(=O)N[C@@H](CO)C(=O)N[C@@H](CO)C(=O)N[C@@H](CCCNC(=N)N)C(=O)N[C@@H](Cc1c[nH]c3ccccc13)C(=O)N2`, the IC50 on hNaV1.4 (setting [1]) amounted to 38 nM.

On to `C[C@@H]1NC(=O)[C@H](Cc2c[nH]cn2)NC(=O)[C@H](CC(=O)O)NC(=O)[C@H](CCCNC(=N)N)NC(=O)[C@@H]2CSSC[C@H](N)C(=O)N[C@H]3CSSC[C@H](NC(=O)[C@H](CCCNC(=N)N)NC1=O)C(=O)N[C@H](C(N)=O)CSSC[C@H](NC(=O)CNC(=O)CNC(=O)[C@H](CCCNC(=N)N)NC(=O)CNC(=O)[C@H](CC(N)=O)NC3=O)C(=O)N[C@@H](CO)C(=O)N[C@@H](CO)C(=O)N[C@@H](CCCNC(=N)N)C(=O)N[C@@H](Cc1c[nH]c3ccccc13)C(=O)N2`, for which the IC50 on hNaV1.4 (setting [1]) stood at 96.3 nM.

As to `C[C@@H]1NC(=O)[C@H](C)NC(=O)[C@H](Cc2c[nH]cn2)NC(=O)[C@H](CC(=O)O)NC(=O)[C@H](CCCNC(=N)N)NC(=O)[C@@H]2CSSC[C@H](NC(=O)CNC(=O)[C@@H](N)CCCNC(=N)N)C(=O)N[C@H]3CSSC[C@H](NC1=O)C(=O)N[C@H](C(N)=O)CSSC[C@H](NC(=O)CNC(=O)CNC(=O)[C@H](CCCNC(=N)N)NC(=O)CNC(=O)[C@H](CC(N)=O)NC3=O)C(=O)N[C@@H](CO)C(=O)N[C@@H](CO)C(=O)N[C@@H](CCCNC(=N)N)C(=O)N[C@@H](Cc1c[nH]c3ccccc13)C(=O)N2`, the IC50 on hNaV1.4 (setting [1]) came to 64.8 nM.

On to `C[C@@H]1NC(=O)[C@H](Cc2c[nH]cn2)NC(=O)[C@H](CC(=O)O)NC(=O)[C@H](CCCNC(=N)N)NC(=O)[C@@H]2CSSC[C@H](NC(=O)CNC(=O)[C@@H](N)CCCNC(=N)N)C(=O)N[C@H]3CSSC[C@H](NC(=O)[C@H](CCCNC(=N)N)NC1=O)C(=O)N[C@H](C(N)=O)CSSC[C@H](NC(=O)CNC(=O)CNC(=O)[C@H](CCCNC(=N)N)NC(=O)CNC(=O)[C@H](CC(N)=O)NC3=O)C(=O)N[C@@H](CO)C(=O)N[C@@H](CO)C(=O)N[C@@H](CCCNC(=N)N)C(=O)N[C@@H](Cc1c[nH]c3ccccc13)C(=O)N2`, for which the IC50 at hNaV1.4 (setting [1]) was 12.8 nM.

As to `C[C@@H]1NC(=O)[C@H](Cc2c[nH]cn2)NC(=O)[C@H](CC(=O)O)NC(=O)[C@H](CCC(N)=O)NC(=O)[C@@H]2CSSC[C@H](NC(=O)CNC(=O)[C@@H](N)CCCNC(=N)N)C(=O)N[C@H]3CSSC[C@H](NC(=O)[C@H](CCCNC(=N)N)NC1=O)C(=O)N[C@H](C(N)=O)CSSC[C@H](NC(=O)CNC(=O)CNC(=O)[C@H](CCCNC(=N)N)NC(=O)CNC(=O)[C@H](CC(N)=O)NC3=O)C(=O)N[C@@H](CO)C(=O)N[C@@H](CO)C(=O)N[C@@H](CCCNC(=N)N)C(=O)N[C@@H](Cc1c[nH]c3ccccc13)C(=O)N2`, the IC50 at hNaV1.4 (setting [1]) amounted to 99.5 nM.

Take `C[C@@H]1NC(=O)[C@H](Cc2c[nH]cn2)NC(=O)[C@H](CC(=O)O)NC(=O)[C@H](CCCNC(=N)N)NC(=O)[C@@H]2CSSC[C@H](NC(=O)CNC(=O)[C@@H](N)CCCNC(=N)N)C(=O)N[C@H]3CSSC[C@H](NC(=O)[C@H](CCCNC(=N)N)NC1=O)C(=O)N[C@H](C(N)=O)CSSC[C@H](NC(=O)CNC(=O)[C@H](CCCNC(=N)N)NC(=O)[C@H](CCCNC(=N)N)NC(=O)CNC(=O)[C@H](CC(N)=O)NC3=O)C(=O)N[C@@H](CO)C(=O)N[C@@H](CO)C(=O)N[C@@H](CCCNC(=N)N)C(=O)N[C@@H](Cc1c[nH]c3ccccc13)C(=O)N2`: the “Fold Difference to SxIIIC (hNaV1.7)” value on hNaV1.7 (↓ fold-decrease, ↑ fold-increase in potency compared to SxIIIC, ns no significant difference) was “ns”.

For `C[C@@H]1NC(=O)[C@H](C)NC(=O)[C@H](Cc2c[nH]cn2)NC(=O)[C@H](CC(=O)O)NC(=O)[C@H](Cc2c[nH]cn2)NC(=O)[C@@H]2CSSC[C@H](NC(=O)CNC(=O)[C@@H](N)CCCNC(=N)N)C(=O)N[C@H]3CSSC[C@H](NC1=O)C(=O)N[C@H](C(N)=O)CSSC[C@H](NC(=O)CNC(=O)CNC(=O)[C@H](CCCNC(=N)N)NC(=O)CNC(=O)[C@H](CC(N)=O)NC3=O)C(=O)N[C@@H](CO)C(=O)N[C@@H](CO)C(=O)N[C@@H](CCCNC(=N)N)C(=O)N[C@@H](Cc1c[nH]c3ccccc13)C(=O)N2`, the IC50 at hNaV1.4 (setting [1]) is 248 nM.

Usually IC50 stands for the concentration at which inhibition is half-maximal.
